Experimental data: PubChem BioAssay AID624099 (ICCB-Longwood, 2012)
This is an unselected part of about 21,000 reagents. 497 of them (2.4%) were called active. 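Higher z means weaker E2 silencing; only reporter increases were scored, and knock-downs that hurt cell survival may mask genuine repressor factors.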 Reagents against one gene are numbered here.

Aim: 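Host factors E2 relies on to silence an HPV18 LCR reporter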 (primary screen)
Cells: human C33A cervical carcinoma cells (HPV-negative) stably expressing BPV1 E2 and an HPV18 LCR luciferase reporter
Reagents: siRNA pool against human genes, 40 nM
Duration: 72 h
Measurement: 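HPV18 LCR reporter light per well, converted to plate-wise z-scores that exclude control wells, and averaged over triplicate plates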
Scale: mean z-score and z-score: higher = stronger reporter signal, weaker E2 silencing
Active means: 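Hit if mean z-score reaches 2 and two or more of three replicate z-scores also reach 2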

The first 6 records as a preview:
| gene knocked down | reagent | mean z-score | z-score, replicate A | z-score, replicate B | z-score, replicate C | Call |
| --- | --- | --- | --- | --- | --- | --- |
| STRAP (serine/threonine kinase receptor associated protein) | 1 | -1.91 | -1.88 | -2.17 | -1.67 | inactive |
| CLVS1 (clavesin 1) | 1 | 0.9 | 0.59 | 0.96 | 1.15 | inactive |
| CNPY1 (canopy FGF signaling regulator 1) | 1 | 1.42 | 1.64 | 1.1 | 1.52 | inactive |
| C7orf57 (chromosome 7 open reading frame 57) | 1 | -1.97 | -2.21 | -1.86 | -1.85 | inactive |
| BCL7A (BAF chromatin remodeling complex subunit BCL7A) | 1 | -0.94 | -1.12 | -0.93 | -0.79 | inactive |
| UPP1 (uridine phosphorylase 1) | 1 | 1.6 | 1.27 | 1.96 | 1.58 | inactive |

The list itself, repeating the preview:
| gene knocked down | reagent | mean z-score | z-score, replicate A | z-score, replicate B | z-score, replicate C | Call |
| --- | --- | --- | --- | --- | --- | --- |
| STRAP (serine/threonine kinase receptor associated protein) | 1 | -1.91 | -1.88 | -2.17 | -1.67 | inactive |
| CLVS1 (clavesin 1) | 1 | 0.9 | 0.59 | 0.96 | 1.15 | inactive |
| CNPY1 (canopy FGF signaling regulator 1) | 1 | 1.42 | 1.64 | 1.1 | 1.52 | inactive |
| C7orf57 (chromosome 7 open reading frame 57) | 1 | -1.97 | -2.21 | -1.86 | -1.85 | inactive |
| BCL7A (BAF chromatin remodeling complex subunit BCL7A) | 1 | -0.94 | -1.12 | -0.93 | -0.79 | inactive |
| UPP1 (uridine phosphorylase 1) | 1 | 1.6 | 1.27 | 1.96 | 1.58 | inactive |
| IVL (involucrin) | 1 | 1.2 | 1.08 | 1.22 | 1.3 | inactive |
| MANBA (mannosidase beta) | 1 | -0.19 | -0.44 | 0.1 | -0.23 | inactive |
| ARMC5 (armadillo repeat containing 5) | 1 | 0.6 | 0.33 | 0.82 | 0.66 | inactive |
| LOC285435 (retired record) | 1 | -0.2 | -0.3 | -0.13 | -0.16 | inactive |
| NATD1 (N-acetyltransferase domain containing 1) | 1 | -0.61 | -0.27 | -1.04 | -0.52 | inactive |
| ICAM3 (intercellular adhesion molecule 3) | 1 | 0.21 | 0.17 | 0.01 | 0.46 | inactive |
| JADE3 (jade family PHD finger 3) | 1 | -0.24 | -0.19 | -0.23 | -0.3 | inactive |
| ANKRD40 (ankyrin repeat domain 40) | 1 | -1.25 | -1.6 | -1.02 | -1.12 | inactive |
| PCDH18 (protocadherin 18) | 1 | -0.02 | 0.58 | -0.12 | -0.51 | inactive |
| DEFB129 (defensin beta 129) | 1 | -0.7 | -1.31 | -0.59 | -0.19 | inactive |
| ZNF30 (zinc finger protein 30) | 1 | 2.69 | 2.39 | 3.04 | 2.66 | active |
| TFCP2 (transcription factor CP2) | 1 | -0.09 | -0.21 | -0.19 | 0.12 | inactive |
| SYNPO (synaptopodin) | 1 | 0.31 | -0.02 | 0.92 | 0.03 | inactive |
| ABHD10 (abhydrolase domain containing 10, depalmitoylase) | 1 | -0.29 | -0.63 | -0.03 | -0.21 | inactive |
| TMC2 (transmembrane channel like 2) | 1 | -1.56 | -1.64 | -1.5 | -1.53 | inactive |
| LOC399768 (retired record) | 1 | -0.16 | -0.45 | -0.05 | 0.01 | inactive |
| RPSAP49 (ribosomal protein SA pseudogene 49) | 1 | -1.66 | -1.61 | -1.62 | -1.74 | inactive |
| USP32P2 (ubiquitin specific peptidase 32 pseudogene 2) | 1 | -0.93 | -1.19 | -0.72 | -0.88 | inactive |
| HHATL (hedgehog acyltransferase like) | 1 | -0.69 | -0.68 | -0.71 | -0.67 | inactive |
| TBATA (thymus, brain and testes associated) | 1 | -0.78 | -0.84 | -1.13 | -0.37 | inactive |
| TAS2R9 (taste 2 receptor member 9) | 1 | -2.13 | -2.18 | -2.2 | -2.01 | inactive |
| POLG (DNA polymerase gamma, catalytic subunit) | 1 | 0.01 | -0.06 | 0.07 | 0.02 | inactive |
| RABL2B (RAB, member of RAS oncogene family like 2B) | 1 | 1.33 | 1.11 | 1.26 | 1.63 | inactive |
| NAXD (NAD(P)HX dehydratase) | 1 | -1.36 | -1.48 | -1.54 | -1.06 | inactive |
| BNIP2 (BCL2 interacting protein 2) | 1 | -0.98 | -1.03 | -1.14 | -0.76 | inactive |
| ATP2B2 (ATPase plasma membrane Ca2+ transporting 2) | 1 | -0.22 | -0.06 | -0.32 | -0.27 | inactive |
| UCKL1 (uridine-cytidine kinase 1 like 1) | 1 | -1.72 | -1.86 | -1.9 | -1.42 | inactive |
| NT5C2 (5'-nucleotidase, cytosolic II) | 1 | 0 | -0.06 | -0.22 | 0.28 | inactive |
| USP45 (ubiquitin specific peptidase 45) | 1 | 0.97 | 0.95 | 1.16 | 0.79 | inactive |
| LINC01549 (long independently transcribed non-coding RNA 1549) | 1 | -0.43 | -0.66 | -0.23 | -0.42 | inactive |
| PRXL2B (peroxiredoxin like 2B) | 1 | 0.62 | 0.71 | 0.42 | 0.74 | inactive |
| FKTN (fukutin) | 1 | -1.51 | -1.6 | -1.69 | -1.23 | inactive |
| INPP5D (inositol polyphosphate-5-phosphatase D) | 1 | -0.67 | -0.09 | -1.04 | -0.87 | inactive |
| NCF2 (neutrophil cytosolic factor 2) | 1 | -1 | -0.83 | -1.15 | -1.01 | inactive |
| ZNF561-AS1 (ZNF561 antisense RNA 1) | 1 | 0.09 | 0.08 | 0.29 | -0.09 | inactive |
| CIART (circadian associated repressor of transcription) | 1 | -0.97 | -0.82 | -0.69 | -1.4 | inactive |
| SENP2 (SUMO specific peptidase 2) | 1 | -0.44 | -0.86 | -0.5 | 0.04 | inactive |
| ARSL (arylsulfatase L) | 1 | 1.2 | 0.96 | 1.18 | 1.47 | inactive |
| CLEC5A (C-type lectin domain containing 5A) | 1 | 1.63 | 1.2 | 1.67 | 2.01 | inactive |
| DDX53 (DEAD-box helicase 53) | 1 | 0.72 | 0.81 | 0.51 | 0.84 | inactive |
| PCARE (photoreceptor cilium actin regulator) | 1 | -0.01 | -0.1 | 0.08 | 0 | inactive |
| ASB15 (ankyrin repeat and SOCS box containing 15) | 1 | -0.77 | -0.52 | -1.14 | -0.65 | inactive |
| DUSP18 (dual specificity phosphatase 18) | 1 | -0.07 | -0.02 | -0.38 | 0.19 | inactive |
| NCF1C (neutrophil cytosolic factor 1C (pseudogene)) | 1 | 0.69 | 0.77 | 0.47 | 0.82 | inactive |
| PIWIL2 (piwi like RNA-mediated gene silencing 2) | 1 | 2.64 | 2.12 | 2.69 | 3.11 | active |
| CAMKV (CaM kinase like vesicle associated) | 1 | -1.63 | -1.24 | -1.99 | -1.67 | inactive |
| ART3 (ADP-ribosyltransferase 3 (inactive)) | 1 | -0.13 | 0.23 | -0.29 | -0.33 | inactive |
| DYNC2H1 (dynein cytoplasmic 2 heavy chain 1) | 1 | -0.04 | 0.2 | -0.01 | -0.32 | inactive |
| FLJ45300 (retired record) | 1 | -0.83 | -0.81 | -0.74 | -0.95 | inactive |
| SNN (stannin) | 1 | -0.83 | -0.86 | -0.71 | -0.94 | inactive |
| RUVBL1 (RuvB like AAA ATPase 1) | 1 | 0.4 | 0.3 | 0.36 | 0.53 | inactive |
| MCU (mitochondrial calcium uniporter) | 1 | -0.37 | -0.55 | -0.26 | -0.31 | inactive |
| ZNF346 (zinc finger protein 346) | 1 | 0 | 0.09 | -0.22 | 0.14 | inactive |
| MICOS13 | 1 | 1.53 | 1.58 | 1.26 | 1.74 | inactive |
| CDKL5 (cyclin dependent kinase like 5) | 1 | -1.66 | -1.37 | -1.47 | -2.14 | inactive |
| MOK (MOK protein kinase) | 1 | 0.08 | 0.11 | -0.18 | 0.31 | inactive |
| GALNT3 (polypeptide N-acetylgalactosaminyltransferase 3) | 1 | -0.06 | 0.18 | -0.15 | -0.22 | inactive |
| VPS29 (VPS29 retromer complex component) | 1 | -0.34 | -0.33 | -0.23 | -0.46 | inactive |
| PROSER1 (proline and serine rich 1) | 1 | 0.17 | 0.25 | 0.89 | -0.62 | inactive |
| NPRL3 (NPR3 like, GATOR1 complex subunit) | 1 | 0.08 | 0.04 | 0.1 | 0.08 | inactive |
| IGF2-AS (IGF2 antisense RNA) | 1 | -0.28 | -0.16 | -0.33 | -0.33 | inactive |
| SETDB2 (SET domain bifurcated histone lysine methyltransferase 2) | 1 | -0.9 | -1.09 | -0.98 | -0.62 | inactive |
| LCORL (ligand dependent nuclear receptor corepressor like) | 1 | -0.95 | -0.89 | -0.98 | -0.97 | inactive |
| RSPRY1 (ring finger and SPRY domain containing 1) | 1 | 0.26 | 0.25 | 0.21 | 0.33 | inactive |
| HNRNPC (heterogeneous nuclear ribonucleoprotein C) | 1 | 0.73 | 0.48 | 1.04 | 0.66 | inactive |
| ZFR2 (zinc finger RNA binding protein 2) | 1 | -0.13 | -0.11 | 0 | -0.28 | inactive |
| ZFR2 (zinc finger RNA binding protein 2) | 2 | -0.91 | -0.79 | -0.98 | -0.97 | inactive |
